# Biological target: SARS-CoV-2 spike protein (SARS-CoV-2) (UniProt P0DTC2)
substance,measurement,value
MIT control,EC50,6.8 nM

# — patent US20210380640A1
